Test system: influenza A strains
Assay: MDCK Cell Protection Assay, panel of influenza strains
Assay type: cell-based, influenza A virus
Settings: all strains including resistant ones

O=C(O)[C@H]1C2CCC(CC2)C1Nc1nc(-c2c[nH]c3ncc(F)cc23)ncc1F (stereo partly shown) was tested, and the “effectiveness against strains resistant to amantadine and neuraminidase inhibitors” value was “equally effective”.

From US9771361B2, “Inhibitors of influenza viruses replication” (priority 2013, dated 2017)
